Earlier results as cited in publication PMC11121871.

Biological target: TLR4 (Homo sapiens) (UniProt O00206)
Experiment: SPR

For “SARS-CoV-2 spike trimer (from UniProt P0DTC2)”, the Kd is listed as 0.3 µM.
